From publication PMC9558617 (ACS infectious diseases, 2022)

Tested on: NADPH
Assay: purified protein, by the assay type

“MtbPanG (Rv3603c) (Mycobacterium tuberculosis H37Rv)” was tested. Which Km did it give?
The Km was 2.3 ± 0.3 µM.
